Measured values from several laboratories, pooled; numbers as filed in NIAID ChemDB.

All rows: toxicity to cultured cells; cells: CEM; measure: CC50

Blank or dashed fields: not listed here.

SMILES,method,value
CCCCCCCCCCCCC(N=[N+]=[N-])C(=O)OC[C@H]1O[C@@H](n2cc(C)c(=O)[nH]c2=O)C[C@@H]1O,,>20 µM
COc1cc(OC)c2c(=O)cc(-c3ccc(OCCCN4CCCCC4)c(N)c3)n(C)c2c1,MTT,>100 µM
Nc1ccn([C@H]2CC[C@@H](CO)O2)c(=O)n1,,120 µM
CC(C)=CCC[C@]1(C)C=Cc2c(ccc3c2C(=O)C(=O)C(C2=C(Cl)C(=O)c4ccccc4C2=O)=C3O)O1,MTT,2.7 µM
O=C(c1cccc([N+](=O)[O-])c1)c1ccc2c(c1)sc(=O)n2Cc1ccccc1,,4.5 µg/mL
Nc1nc(Cl)c2ncn([C@H]3O[C@@H](CO)C=C3F)c2n1,,>100 µM
Cc1occc1C(=S)Nc1ccc(Cl)c(/C=N/OCc2ccccc2)c1,,>7.1 µM
Cc1sccc1C(=S)Nc1ccc(Cl)c(OCC(C)(C)C)c1,,6.2 µg/mL
N#C/C(=C\c1ccc(O)c(O)c1)C(=O)NCC1CCCC(CNC(=O)/C(C#N)=C/c2ccc(O)c(O)c2)C1,,11.8 µM
CO[C@H]1N([C@H]2C[C@H](F)[C@@H](CO)O2)C(=O)NC(=O)[C@@]1(C)Cl,XTT,>800 µM
O=c1[nH]cnc2c1ncn2[C@@H]1O[C@@H](CO)C=C1F,,>100 µM
C/C=C/CSc1cc(NC(=O)c2ccoc2C)ccc1Cl,,5.9 µg/mL
Cc1csc(/C=C/c2cc3ccc(Cl)c(C)c3nc2Cl)c1,MTT,62.04 µM
Cc1occc1C(=O)Nc1ccc(Cl)c(COC(C)(C)C)c1,,6.2 µg/mL
N#C/C(=C\c1ccc(O)c(O)c1)C(=O)NCCCCCNC(=O)/C(C#N)=C/c1ccc(O)c(O)c1,,13 µM
COCn1c(Cc2cccc3ccccc23)c(C(C)C)c(=O)[nH]c1=O,,52 µM
Cc1occc1C(=S)Nc1ccc(Cl)c(COC(C)(C)C)c1,,18 µg/mL
N#C/C(=C\c1ccc(O)c(O)c1)C(=O)OCc1ccccc1COC(=O)/C(C#N)=C/c1ccc(O)c(O)c1,,8.5 µM
COc1cc(OC)c2c(=O)cc(-c3ccc(OCCCN4CCN(C)CC4)c(NC(=O)CCCN(C)C)c3)n(C)c2c1,MTT,>100 µM
Cc1cn(C2OC(CO[Si](C)(C)C(C)(C)C)C3(OS(=O)(=O)C=C3N)C2O[Si](C)(C)C(C)(C)C)c(=O)n(/C=C\CO)c1=O,,44 µM
C[C@]1(Br)C(=O)NC(=O)N([C@H]2C[C@H](F)[C@@H](CO)O2)[C@@H]1N=[N+]=[N-],XTT,100 µM
Cc1cc(/C=C/c2cc3ccc(Cl)c(C)c3nc2Cl)c(C)s1,MTT,70.09 µM
Nc1nc(Cl)c2ncn([C@@H]3O[C@@H](CO)C=C3F)c2n1,,28.2 µM
CCOC(=O)c1cc(NC(=S)c2ccoc2C)ccc1C,,16 µg/mL
Cc1cn([C@H]2C[C@H](O)[C@@H](COC(=O)CCCCCCCCCCCBr)O2)c(=O)[nH]c1=O,,>52 µM
Cc1occc1C(=S)Nc1ccc(Cl)c(C(=O)OCC(C)C)c1,,8.5 µg/mL
Cn1c2ccccc2c(=O)c2c(O)cccc21,,5.6 µg/mL
Cc1cc(S(=O)(=O)n2cccc2)c(SCC#N)cc1Cl,XTT,>200 µM
CC(C)c1c(Cc2cccc3ccccc23)n(COCc2ccccc2)c(=O)[nH]c1=O,,19.3 µM
Cc1cc(S(=O)(=O)n2cccc2)c(SC(C(=O)O)c2ccccc2)cc1Cl,XTT,31.8 µM
CC(C)(C)O/N=C/c1cc(NC(=S)c2ccccc2)ccc1Cl,,9.7 µg/mL
Nc1ccn([C@@H]2O[C@H](CO)C=C2F)c(=O)n1,,35.3 µM
COc1cc(OC)c2c(=O)cc(-c3ccc(OCCCN4CCCCC4)c(NC(=O)CCCN(C)C)c3)n(C)c2c1,MTT,>100 µM
CCc1c(Cc2ccc3ccccc3c2)n(COCc2ccccc2)c(=O)[nH]c1=O,,22.2 µM
CC1(C)N=C(N)N=C(N)N1c1cccc(CCCCOc2ccccc2)c1,XTT,1.72 µM
Cc1cn([C@H]2C[C@H](O)[C@@H](COC(=O)CCCCCCCCCCCN=[N+]=[N-])O2)c(=O)[nH]c1=O,,>21 µM
N#C/C(=C\c1ccc(O)c(O)c1)C(=O)NCCN1CCN(C(=O)/C(C#N)=C/c2ccc(O)c(O)c2)CC1,,23.1 µM
CO[C@H]1N([C@H]2C=C[C@@H](CO)O2)C(=O)NC(=O)[C@]1(C)Br,XTT,>128 µM
CCOCn1c(Cc2cccc3ccccc23)c(C)c(=O)[nH]c1=O,,50.3 µM
Cc1cn(C2OC(CO[Si](C)(C)C(C)(C)C)C3(OS(=O)(=O)C=C3N)C2O[Si](C)(C)C(C)(C)C)c(=O)n(CCCNC(=O)c2ccc(N=[N+]=[N-])cc2O)c1=O,,≥250 µM
C#CCO/N=C/c1cc(NC(=O)c2ccoc2C)ccc1Cl,,16 µM
CCCc1c(Cc2cccc3ccccc23)n(COCCO)c(=O)[nH]c1=O,,108 µM
Nc1ccn([C@H]2C=C(F)[C@@H](CO)O2)c(=O)n1,,>100 µM
C=C(C)[C@@H]1CC[C@]2(C(=O)NCCCCCCCC(=O)Nc3ccc(C(=O)O)cc3)CC[C@]3(C)[C@H](CC[C@@H]4[C@@]5(C)CC[C@H](O)C(C)(C)[C@@H]5CC[C@]43C)[C@@H]12,,0.98 µM
Nc1ccn([C@@H]2O[C@H](CO)[C@@H](O)[C@H]2S)c(=O)n1,MTT,305 µM
C=CCO/N=C/c1cc(NC(=S)c2ccoc2C)ccc1Cl,,12 µg/mL
O=C1CSC(c2c(Cl)cccc2Cl)N1Cc1cccs1,,41.54 µM
CC(C)OC(=S)Nc1ccc(Cl)c(OC(=O)C(C)C)c1,,55.6 µM
Nc1nc2c(ncn2C[C@H]2C[C@H]2[C@H](O)CO)c(=O)[nH]1,,>100 µM
C=C(C)[C@@H]1CC[C@]2(C(=O)NCCCCCCCC(=O)NC(Cc3ccccc3)C(=O)O)CC[C@]3(C)[C@H](CC[C@@H]4[C@@]5(C)CC[C@H](O)C(C)(C)[C@@H]5CC[C@]43C)[C@@H]12,,>3 µM
CC(C)OC(=S)Nc1ccc(Cl)c(OC(F)F)c1,,34.7 µM
Nc1nc2c(ncn2[C@H]2O[C@@H](CO)C=C2F)c(=O)[nH]1,,>100 µM
COCn1c(Cc2ccc3ccccc3c2)c(C)c(=O)[nH]c1=O,,121 µM
Cc1occc1C(=O)Nc1ccc(Cl)c(C(=O)OC(C)C)c1,,3.8 µg/mL
Cc1cn(C2OC(CO[Si](C)(C)C(C)(C)C)C3(OS(=O)(=O)C=C3N)C2O[Si](C)(C)C(C)(C)C)c(=O)n(CC(=O)N(CCCl)CCCl)c1=O,,86 µM
Nc1ccn([C@@H]2C=C(F)[C@H](CO)O2)c(=O)n1,,>100 µM
Nc1ncnc2c1ncn2C[C@H]1C[C@H]1[C@H](O)CO,,>100 µM
O=C(c1ccc([N+](=O)[O-])cc1)c1ccc2[nH]c(=O)oc2c1,,15 µg/mL
Cc1c(Cl)ccc2cc(/C=C/C(=O)c3ccc(Br)cc3)c(Cl)nc12,MTT,34.08 µM
O=c1[nH]cnc2c1ncn2CC1(CO)CC1CO,,>100 µg/mL
CC1=C(C(=S)Nc2ccc(Cl)c(C=NOC(C)(C)C)c2)CCCO1,,10 µg/mL
C=CSC(NC(=O)[C@H](Cc1ccccc1)NS(=O)(=O)N1CCOCC1)C(=O)N[C@@H](CC1CCCCC1)[C@@H](O)C[C@H](C(=O)NCCCC)C(C)C,,>13 µM
Cc1cn([C@H]2O[C@@H](CO)C=C2F)c(=O)[nH]c1=O,,>100 µM
Cc1c(Cl)ccc2cc(/C=C/c3cccc4c3OCCO4)c(Cl)nc12,MTT,100 µM
Cn1cccc1CN1C(=O)CSC1c1c(F)cccc1Cl,,68.1 µM
Cc1occc1C(=S)Nc1ccc(Cl)c(SCC(=O)OC(C)(C)C)c1,,7 µg/mL
Nc1ccn([C@@H]2O[C@@H](CO)C=C2F)c(=O)n1,,>100 µM
N#C/C(=C\c1ccc(O)c(O)c1)C(=S)NCc1ccccc1,,31.7 µM
COc1ccc(C(=O)/C=C/c2cc3ccc(Cl)c(C)c3nc2Cl)c(Br)c1,MTT,43.09 µM
C=C(C)[C@@H]1CC[C@]2(C(=O)NCCCCCCCC(=O)NC(CC(=O)O)C(F)(F)F)CC[C@]3(C)[C@H](CC[C@@H]4[C@@]5(C)CC[C@H](O)C(C)(C)[C@@H]5CC[C@]43C)[C@@H]12,,>3 µM
Cc1cc(S(=O)(=O)N2CCNC2=O)c(SCC(N)=O)cc1Cl,XTT,>200 µM
O=C(c1cccc(Cl)c1)c1ccc2c(c1)sc(=O)n2Cc1ccccc1,,4 µg/mL
Nc1nc2c(ncn2C[C@H]2C[C@H]2CO)c(=O)[nH]1,,>100 µM
CSS[C@H]1C[C@H](n2cc(C)c(=O)[nH]c2=O)O[C@@H]1CO,MTT,155 µM
Nc1ccn(C[C@H]2C[C@H]2CO)c(=O)n1,,>100 µM
Cn1c(=O)sc2cc(C(=O)c3cccc(F)c3)ccc21,,>200 µg/mL
C=CCOc1cc(NC(=S)c2ccoc2C)ccc1C#N,,>100 µg/mL
CCCCCCCCCCCCCC(=O)OC[C@H]1O[C@@H](n2cc(C)c(=O)[nH]c2=O)C[C@@H]1O,,12 µM
Nc1nc(N)c2ncn(CC3(CO)CC3CO)c2n1,,>100 µg/mL
Cc1occc1C(=O)Nc1ccc(Cl)c(C(=O)OC(C)C2CC2)c1,,44 µg/mL
C=CCO/N=C/c1cc(NC(=S)c2ccoc2C)ccc1Cl,,>16 µM
Cc1cc(C)c(Nc2ccnc(Nc3ccc(C#N)cc3)n2)c(C)c1,,1.367 µM
N#C/C(=C\c1cc(O)c(O)c([N+](=O)[O-])c1)C(=O)NCCCNC(=O)/C(C#N)=C/c1cc(O)c(O)c([N+](=O)[O-])c1,,72.2 µM
Cc1cc(S(=O)(=O)NC2=NCCN2)c(SCC(N)=O)cc1Cl,XTT,>200 µM
COc1cc(OC)c2c(=O)cc(-c3ccc(OCCCN)c(NC(=O)CCCN(C)C)c3)n(C)c2c1,MTT,>100 µM
C=C(C)[C@@H]1CC[C@]2(C(=O)NCCCCCCCC(=O)N(C)CC(=O)O)CC[C@]3(C)[C@H](CC[C@@H]4[C@@]5(C)CC[C@H](O)C(C)(C)[C@@H]5CC[C@]43C)[C@@H]12,,>3 µM
Cc1occc1C(=O)Nc1ccc(Cl)c(OCCC(C)C)c1,,5 µg/mL

CCn is the concentration with n% toxicity to the cells. Neighbouring rows are from separate reports.